A mixed list of measured activities; the numbers were collected in NIAID ChemDB.

Shared fields: growth or infection tests

ECn is the concentration giving n% inhibition of infection, replication or growth. A number after MIC or MFC names an inhibition level or a share of isolates. Inhibition is in % at the dose shown (toxicity tests: loss of growth or viability). Conditions beyond the fields shown may differ between rows. Two numbers with a dash give a range or band.

{"smiles": "Cc1ccc(C(=O)Nc2ccc(S(=O)(=O)O)c3cc(S(=O)(=O)O)cc(S(=O)(=O)O)c23)cc1NC(=O)c1cccc(NC(=O)Nc2cccc(C(=O)Nc3cc(C(=O)Nc4ccc(S(=O)(=O)O)c5cc(S(=O)(=O)O)cc(S(=O)(=O)O)c45)ccc3C)c2)c1", "measure": "inhibition", "tested at": "10 µg/mL", "cells": "Human amnion AV3 cells", "species": "Herpes simplex virus", "method": "cytopathic effect", "value": "47%"}
{"smiles": "CC(C)Oc1ccc(-n2c(C(=O)NCc3ccccc3)c3n(c2=O)CCN(C(=O)/C=C/c2cccc(Cl)c2Cl)C3)cc1", "measure": "EC50", "cells": "HepG2.117", "species": "Hepatitis B virus", "method": "PCR", "value": ">5 µM"}
{"smiles": "Nc1ncnc2c1ncn2[C@@H]1C=C[C@@H](O)[C@H]1O", "measure": "EC50", "strain or isolate": "BIL", "cells": "CV-1", "species": "Measles virus", "method": "neutral red", "value": ">10 µg/mL"}
{"smiles": "COc1ccc(-n2cc(C(C)(C)O)nn2)cc1", "measure": "MIC", "strain or isolate": "URM 4970", "species": "Candida parapsilosis", "method": "broth dilution", "value": "512 µg/mL"}
{"smiles": "Nc1nc2c(ncn2COC(CO)CO)c(=O)[nH]1", "measure": "EC95", "strain or isolate": "D10 (D341E)", "species": "Human cytomegalovirus", "method": "virus yield", "value": "3.4 µM"}
{"smiles": "COc1ccc(-n2c(C(=O)N[C@@H](C)c3ccccc3)c3n(c2=O)CCN(C(=O)c2ccc(Br)c(Cl)c2)C3)cc1", "measure": "EC50", "cells": "HepG2.117", "species": "Hepatitis B virus", "method": "PCR", "value": ">0.5 µM"}
{"smiles": "O=c1[nH]c(=O)n([C@H]2C[C@H](O)[C@@H](CO)O2)cc1I", "measure": "inhibition", "tested at": "0.1 µg/mL", "strain or isolate": "Kawaguchi", "cells": "HELF", "species": "Varicella zoster virus", "method": "plaque count", "value": "4%"}
{"smiles": "C=CCc1ccc(OC)c(OC)c1", "measure": "MIC90", "strain or isolate": "2323", "species": "Candida albicans", "method": "turbidity", "value": "350 µg/mL"}
{"smiles": "CCC(CC)O[C@@H]1C=C(C(=O)O)C[C@H](N)[C@H]1NC(C)=O", "measure": "EC50", "strain or isolate": "Memphis/3/89", "cells": "MDCK", "species": "Influenza B virus", "method": "plaque count", "value": "0.045 µM"}
{"smiles": "CCOC(=O)c1c(C)nc(OCCCNc2ccnc3cc(Cl)ccc23)nc1-c1ccccc1", "measure": "MIC99", "strain or isolate": "23/10993", "species": "Cryptococcus gattii", "value": "5.7 µg/mL"}
{"smiles": "CCO/N=C/c1ccc(OCCC2CCN(c3ccc(Cl)nn3)CC2)cc1", "measure": "EC50", "strain or isolate": "FO2-2513 (ICAM-1 receptor group 69)", "cells": "KB", "species": "Rhinovirus", "method": "neutral red", "value": "0.052 µM"}
{"smiles": "O=S(=O)([O-])c1ccc(O)c2ccccc12", "measure": "inhibition", "tested at": "10 µg/mL", "strain or isolate": "TYPE 3", "cells": "Human embryonic lung cells", "species": "Adenovirus", "method": "cytopathic effect", "value": "10%"}
{"smiles": "CCC(CC)O[C@@H]1C=C(C(=O)O)C[C@H](N)[C@H]1NC(C)=O", "measure": "EC50", "strain or isolate": "Influenza A/Shandong/09/93 (H3N2)", "cells": "MDCK", "species": "Influenza A virus", "value": "0.32 µM"}
{"smiles": "O=S(=O)([O-])c1ccc2c(S(=O)(=O)[O-])cc(S(=O)(=O)[O-])cc2c1", "measure": "inhibition", "tested at": "50 µg/mL", "strain or isolate": "TYPE 3", "cells": "Human amnion AV3 cells", "species": "Adenovirus", "method": "cytopathic effect", "value": "0%"}
{"smiles": "Oc1ccccc1C=Nc1ccccc1O", "measure": "MIC99", "strain or isolate": "27JF", "species": "Cryptococcus neoformans", "value": "11.3 µg/mL"}
{"smiles": "Cc1ccc(-n2cc(C(C)(C)O)nn2)cc1C", "measure": "inhibition", "tested at": "2048 µg/mL", "strain or isolate": "URM 4987", "species": "Candida albicans", "method": "broth dilution", "value": "0%"}
{"smiles": "CO[C@H]1/C=C/O[C@@]2(C)Oc3c(C)c(O)c4c(O)c(c(/C=N/N5CCN(C6CCCC6)CC5)c(O)c4c3C2=O)NC(=O)/C(C)=C\\C=C\\[C@H](C)[C@H](O)[C@@H](C)[C@@H](O)[C@@H](C)[C@H](OC(C)=O)[C@@H]1C", "measure": "MIC", "strain or isolate": "LYN", "species": "Mycobacterium avium intracellulare", "value": "2 µg/mL"}
{"smiles": "O=S(=O)(O)c1ccc2ccc(S(=O)(=O)O)cc2c1", "measure": "inhibition", "tested at": "10 µg/mL", "cells": "Human amnion AV3 cells", "species": "Herpes simplex virus", "method": "cytopathic effect", "value": "0%"}
{"smiles": "CN[C@H]1CC[C@@H](c2ccc(Cl)c(Cl)c2)c2ccccc21", "measure": "MFC", "strain or isolate": "UM4", "species": "Cryptococcus neoformans", "method": "broth dilution", "value": "10 µg/mL"}
{"smiles": "CC(C)(O)c1cn(-c2ccc3ccccc3c2)nn1", "measure": "inhibition", "tested at": "2048 µg/mL", "strain or isolate": "URM 4818", "species": "Candida parapsilosis", "method": "broth dilution", "value": "0%"}
{"smiles": "CCOC(=O)/C=C/[C@H](C[C@@H]1CCNC1=O)NC(=O)[C@@H](CC(=O)[C@@H](NC(=O)c1cc(C)on1)C(C)C)Cc1ccc(F)cc1", "measure": "EC50", "strain or isolate": "Isolate 43", "cells": "OHIO HELA-I", "species": "Rhinovirus", "method": "cytopathic effect / visual reading", "value": "0.02 µg/mL"}
{"smiles": "COc1cc(C#N)ccc1CNC(=O)c1c2n(c(=O)n1-c1ccc(OC(C)C)cc1)CCN(C(=O)c1ccc(Br)c(Cl)c1)C2", "measure": "EC50", "cells": "HepG2.117", "species": "Hepatitis B virus", "method": "PCR", "value": "0.1–0.5 µM"}
{"smiles": "O=c1[nH]c(=O)n([C@@H]2O[C@H](CO)[C@@H](O)[C@@H]2O)cc1/C=C/Br", "measure": "inhibition", "tested at": "0.0001 µg/mL", "strain or isolate": "YS", "cells": "HELF", "species": "Varicella zoster virus", "method": "plaque count", "value": "0%"}
{"smiles": "O=C(NCc1ccccc1)c1c2n(c(=O)n1-c1ccc(N3CCO[C@H](C(F)(F)F)C3)cc1)CCN(C(=O)c1ccc(Br)c(Cl)c1)C2", "measure": "EC50", "cells": "HepG2.117", "species": "Hepatitis B virus", "method": "PCR", "value": "0.1–0.5 µM"}
{"smiles": "Nc1nc2c(ncn2C=C2CC2CO)c(=O)[nH]1", "measure": "EC90", "strain or isolate": "VR4760 (ganciclovir-resistant)", "species": "Human cytomegalovirus", "method": "plaque count", "value": "4.5 µM"}
{"smiles": "Nc1ccc(S(=O)(=O)O)cc1", "measure": "inhibition", "tested at": "5 µg/mL", "cells": "Human amnion AV3 cells", "species": "Herpes simplex virus", "method": "cytopathic effect", "value": "40%"}
{"smiles": "Nc1ncnc2c1ncn2[C@@H]1CC[C@@H](O)[C@H]1O", "measure": "EC50", "strain or isolate": "CC", "cells": "CV-1", "species": "Measles virus", "method": "neutral red", "value": "0.05 µg/mL"}
{"smiles": "CC(=O)N[C@H]1[C@H]([C@H](O)[C@H](O)CO)OC(C(=O)O)=C[C@@H]1N=C(N)N", "measure": "EC50", "strain or isolate": "LEE/40", "cells": "MDCK", "species": "Influenza B virus", "value": "0.6 µM"}
{"smiles": "O=C(c1ccc(Br)c(Cl)c1)N1CCn2c(c3n(c2=O)CC2(COC2)CN(Cc2ccccc2)C3=O)C1", "measure": "EC50", "cells": "HepG2.117", "species": "Hepatitis B virus", "method": "PCR", "value": "0.5–5 µM"}
{"smiles": "O=c1[nH]c(=O)n([C@@H]2O[C@H](CO)[C@@H](O)[C@@H]2O)cc1/C=C/Cl", "measure": "inhibition", "tested at": "0.0001 µg/mL", "strain or isolate": "Asahikawa", "cells": "HELF", "species": "Varicella zoster virus", "method": "plaque count", "value": "29%"}
{"smiles": "CC(C)(O)c1cn(-c2cccc3ccccc23)nn1", "measure": "inhibition", "tested at": "2048 µg/mL", "strain or isolate": "URM 4384", "species": "Candida albicans", "method": "broth dilution", "value": "0%"}
{"smiles": "C=C/C(C)=C/[C@@]1(C)SC(=O)C(C)=C1O", "measure": "MIC", "strain or isolate": "UB1005/PEMR2.1", "species": "Escherichia coli", "value": ">600 µM"}
{"smiles": "Cc1cn([C@@H]2O[C@H](CO)[C@@H](O)[C@@H]2O)c(=O)[nH]c1=O", "measure": "inhibition", "tested at": "0.01 µg/mL", "strain or isolate": "Kawaguchi", "cells": "HELF", "species": "Varicella zoster virus", "method": "plaque count", "value": "0%"}
{"smiles": "Cc1cc(C(=O)N2CCn3c(c(C(=O)NCc4ccccc4)n(-c4ccc(OC(C)C)cc4)c3=O)C2)ccc1Br", "measure": "EC50", "cells": "HepG2.117", "species": "Hepatitis B virus", "method": "PCR", "value": ">5 µM"}
{"smiles": "[N-]=[N+]=N[C@H]1C[C@@H](n2cnc3c(N)ncnc32)[C@H](O)[C@@H]1O", "measure": "EC50", "cells": "CV-1", "species": "Measles virus", "method": "virus yield", "value": "11 µg/mL"}
{"smiles": "CCOC(=O)c1c(C)nc(NCCCCNc2ccnc3cc(Cl)ccc23)nc1-c1ccc(F)cc1", "measure": "MIC99", "strain or isolate": "ATCC 24065", "species": "Cryptococcus gattii", "value": "8 µg/mL"}
{"smiles": "Nc1ncnc2c1ncn2[C@@H]1C[C@H](N)[C@@H](O)[C@H]1O", "measure": "EC50", "strain or isolate": "SA", "cells": "CV-1", "species": "Measles virus", "method": "neutral red", "value": ">100 µg/mL"}
{"smiles": "C=Cc1cn([C@@H]2O[C@H](CO)[C@@H](O)[C@@H]2O)c(=O)[nH]c1=O", "measure": "inhibition", "tested at": "0.1 µg/mL", "strain or isolate": "YS", "cells": "HELF", "species": "Varicella zoster virus", "method": "plaque count", "value": "3%"}
{"smiles": "C[C@@H](NC(=O)c1c2n(c(=O)n1C)CCN(C(=O)c1ccccc1)C2)c1ccccc1", "measure": "EC50", "cells": "HepG2.117", "species": "Hepatitis B virus", "method": "PCR", "value": "0.5–5 µM"}
{"smiles": "O=C(O)c1cc(S(=O)(=O)[O-])ccc1O", "measure": "inhibition", "tested at": "10 µg/mL", "cells": "Human amnion AV3 cells", "species": "Herpes simplex virus", "method": "cytopathic effect", "value": "0%"}
{"smiles": "CCCC(CCC)C(NC(C)=O)C1CC(C(=O)O)CC1N=C(N)N", "measure": "EC50", "strain or isolate": "Influenza A/Shandong/09/93 (H3N2)", "cells": "MDCK", "species": "Influenza A virus", "value": "0.28 µM"}
{"smiles": "COc1cc(-c2ccc(N=Nc3ccc4c(S(=O)(=O)O)cc(S(=O)(=O)O)c(N)c4c3O)c(OC)c2)ccc1N=Nc1ccc2c(S(=O)(=O)O)cc(S(=O)(=O)O)c(N)c2c1O", "measure": "inhibition", "tested at": "5 µg/mL", "cells": "Human embryonic lung cells", "species": "Rhinovirus", "method": "cytopathic effect", "value": "0%"}
{"smiles": "Cn1cc(C(=O)NCc2ccc(Cl)cc2)c(=O)c2cc(CN3CCOCC3)ccc21", "measure": "inhibition", "tested at": "1.8 µM", "strain or isolate": "GE varicella isolate", "cells": "HFF", "species": "Varicella zoster virus", "method": "plaque count", "value": "90%"}
{"smiles": "CCOC(=O)c1c(C)nc(NCCCCNc2ccnc3cc(Cl)ccc23)nc1-c1ccccc1[N+](=O)[O-]", "measure": "MIC99", "strain or isolate": "L24/01", "species": "Cryptococcus gattii", "value": "8 µg/mL"}
{"smiles": "CCC(CC)[C@H](NC(C)=O)[C@@H]1C[C@@H](C(=O)O)C[C@H]1N=C(N)N", "measure": "EC50", "strain or isolate": "H1N1 A/TEXAS/36/91", "cells": "MDCK", "species": "Influenza A virus", "value": "0.1 µM"}

Again, the opening 7 rows:

{"smiles": "Cc1ccc(C(=O)Nc2ccc(S(=O)(=O)O)c3cc(S(=O)(=O)O)cc(S(=O)(=O)O)c23)cc1NC(=O)c1cccc(NC(=O)Nc2cccc(C(=O)Nc3cc(C(=O)Nc4ccc(S(=O)(=O)O)c5cc(S(=O)(=O)O)cc(S(=O)(=O)O)c45)ccc3C)c2)c1", "measure": "inhibition", "tested at": "10 µg/mL", "cells": "Human amnion AV3 cells", "species": "Herpes simplex virus", "method": "cytopathic effect", "value": "47%"}
{"smiles": "CC(C)Oc1ccc(-n2c(C(=O)NCc3ccccc3)c3n(c2=O)CCN(C(=O)/C=C/c2cccc(Cl)c2Cl)C3)cc1", "measure": "EC50", "cells": "HepG2.117", "species": "Hepatitis B virus", "method": "PCR", "value": ">5 µM"}
{"smiles": "Nc1ncnc2c1ncn2[C@@H]1C=C[C@@H](O)[C@H]1O", "measure": "EC50", "strain or isolate": "BIL", "cells": "CV-1", "species": "Measles virus", "method": "neutral red", "value": ">10 µg/mL"}
{"smiles": "COc1ccc(-n2cc(C(C)(C)O)nn2)cc1", "measure": "MIC", "strain or isolate": "URM 4970", "species": "Candida parapsilosis", "method": "broth dilution", "value": "512 µg/mL"}
{"smiles": "Nc1nc2c(ncn2COC(CO)CO)c(=O)[nH]1", "measure": "EC95", "strain or isolate": "D10 (D341E)", "species": "Human cytomegalovirus", "method": "virus yield", "value": "3.4 µM"}
{"smiles": "COc1ccc(-n2c(C(=O)N[C@@H](C)c3ccccc3)c3n(c2=O)CCN(C(=O)c2ccc(Br)c(Cl)c2)C3)cc1", "measure": "EC50", "cells": "HepG2.117", "species": "Hepatitis B virus", "method": "PCR", "value": ">0.5 µM"}
{"smiles": "O=c1[nH]c(=O)n([C@H]2C[C@H](O)[C@@H](CO)O2)cc1I", "measure": "inhibition", "tested at": "0.1 µg/mL", "strain or isolate": "Kawaguchi", "cells": "HELF", "species": "Varicella zoster virus", "method": "plaque count", "value": "4%"}